The structures appear in SMILES notation.

The subject of the assay is Mycobacterium tuberculosis H37Rv growth inhibition, no glycerol. Briefly: Mycobacterium tuberculosis H37Rv growth inhibition, no glycerol, confirmatory dose response (AID 449764).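 Note: growth read after 7 days of incubation.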 The conditions noted are these: measured here: IC90 growth inhibition.
Usually IC90 stands for the concentration at which the effect reaches the 90% level. As for `O=[N+]([O-])c1cc([N+](=O)[O-])c(CCNc2ccccc2)c([N+](=O)[O-])c1`, the 90% effect concentration (IC90) worked out at 23.4 µM.

Compound `CC(=O)NC(SC(=S)N(C)C)C(Cl)(Cl)Cl` (stereo not drawn) registered an IC90 of 33.5 µM.

Regarding `CN(C)C(=O)c1cc([N+](=O)[O-])cc2c1-c1c(cc([N+](=O)[O-])cc1[N+](=O)[O-])C2=O`, the IC90 stood at 12.2 µM.

The values above are taken from PubChem BioAssay AID449764 (Southern Research Specialized Biocontainment Screening …, 2010).
